The values below come from patent publication US5969096A (priority 1998, dated 1999).

Chains of the proteins cited; added tags and fusions are not shown. Residues count along the entry.
UniProt P02710, 25-461 limits assumed: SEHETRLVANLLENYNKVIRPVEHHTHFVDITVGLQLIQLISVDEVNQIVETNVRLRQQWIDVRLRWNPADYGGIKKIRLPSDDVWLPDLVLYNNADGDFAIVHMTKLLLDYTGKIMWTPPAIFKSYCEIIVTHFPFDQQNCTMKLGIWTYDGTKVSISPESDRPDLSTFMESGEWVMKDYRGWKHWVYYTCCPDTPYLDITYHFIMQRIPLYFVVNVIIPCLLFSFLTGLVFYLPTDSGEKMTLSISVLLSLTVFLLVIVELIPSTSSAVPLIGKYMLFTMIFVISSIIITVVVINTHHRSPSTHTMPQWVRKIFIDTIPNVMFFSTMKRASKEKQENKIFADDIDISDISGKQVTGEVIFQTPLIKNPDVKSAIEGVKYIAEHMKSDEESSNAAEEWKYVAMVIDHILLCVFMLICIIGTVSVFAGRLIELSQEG
UniProt P02712, 25-493 limits assumed: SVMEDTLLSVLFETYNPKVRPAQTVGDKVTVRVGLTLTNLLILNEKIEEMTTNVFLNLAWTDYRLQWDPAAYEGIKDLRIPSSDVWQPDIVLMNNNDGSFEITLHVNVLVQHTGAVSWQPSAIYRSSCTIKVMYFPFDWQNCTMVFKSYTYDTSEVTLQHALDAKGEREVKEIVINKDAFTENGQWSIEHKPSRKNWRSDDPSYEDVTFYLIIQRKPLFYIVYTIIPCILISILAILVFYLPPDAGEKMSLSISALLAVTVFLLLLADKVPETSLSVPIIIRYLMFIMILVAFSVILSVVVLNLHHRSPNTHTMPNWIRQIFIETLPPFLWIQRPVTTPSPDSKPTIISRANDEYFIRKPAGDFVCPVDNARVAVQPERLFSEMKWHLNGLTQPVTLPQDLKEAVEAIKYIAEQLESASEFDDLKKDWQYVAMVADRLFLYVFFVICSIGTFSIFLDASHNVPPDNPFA
UniProt P02714, 18-506 limits assumed: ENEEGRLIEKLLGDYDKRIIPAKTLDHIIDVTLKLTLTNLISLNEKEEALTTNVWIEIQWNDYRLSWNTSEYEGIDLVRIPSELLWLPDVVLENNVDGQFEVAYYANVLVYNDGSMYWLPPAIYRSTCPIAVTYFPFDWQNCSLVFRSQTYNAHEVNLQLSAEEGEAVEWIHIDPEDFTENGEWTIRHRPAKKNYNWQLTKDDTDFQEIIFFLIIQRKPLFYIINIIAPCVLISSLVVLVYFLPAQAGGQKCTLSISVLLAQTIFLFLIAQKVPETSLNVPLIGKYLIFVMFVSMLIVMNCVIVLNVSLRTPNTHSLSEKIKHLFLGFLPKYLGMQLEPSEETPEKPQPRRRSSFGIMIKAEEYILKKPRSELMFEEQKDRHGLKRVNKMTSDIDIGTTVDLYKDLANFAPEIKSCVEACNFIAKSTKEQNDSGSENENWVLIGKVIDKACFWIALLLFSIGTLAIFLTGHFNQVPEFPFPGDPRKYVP
UniProt P02718, 22-522 limits assumed: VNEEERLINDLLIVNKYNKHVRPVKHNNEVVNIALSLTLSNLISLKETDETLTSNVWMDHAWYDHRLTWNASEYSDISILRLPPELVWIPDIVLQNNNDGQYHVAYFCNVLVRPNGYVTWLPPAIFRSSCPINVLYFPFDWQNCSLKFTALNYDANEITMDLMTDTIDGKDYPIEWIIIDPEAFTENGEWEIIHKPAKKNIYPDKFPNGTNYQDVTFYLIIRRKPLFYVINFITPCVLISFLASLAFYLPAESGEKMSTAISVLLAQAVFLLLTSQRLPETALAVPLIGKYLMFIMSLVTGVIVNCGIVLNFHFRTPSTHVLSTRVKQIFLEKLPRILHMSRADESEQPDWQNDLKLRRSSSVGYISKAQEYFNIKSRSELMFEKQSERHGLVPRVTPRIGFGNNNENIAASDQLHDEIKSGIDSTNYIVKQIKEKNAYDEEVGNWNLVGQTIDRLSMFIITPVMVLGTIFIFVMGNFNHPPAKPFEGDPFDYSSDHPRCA
UniProt P17787, 26-502 limits assumed: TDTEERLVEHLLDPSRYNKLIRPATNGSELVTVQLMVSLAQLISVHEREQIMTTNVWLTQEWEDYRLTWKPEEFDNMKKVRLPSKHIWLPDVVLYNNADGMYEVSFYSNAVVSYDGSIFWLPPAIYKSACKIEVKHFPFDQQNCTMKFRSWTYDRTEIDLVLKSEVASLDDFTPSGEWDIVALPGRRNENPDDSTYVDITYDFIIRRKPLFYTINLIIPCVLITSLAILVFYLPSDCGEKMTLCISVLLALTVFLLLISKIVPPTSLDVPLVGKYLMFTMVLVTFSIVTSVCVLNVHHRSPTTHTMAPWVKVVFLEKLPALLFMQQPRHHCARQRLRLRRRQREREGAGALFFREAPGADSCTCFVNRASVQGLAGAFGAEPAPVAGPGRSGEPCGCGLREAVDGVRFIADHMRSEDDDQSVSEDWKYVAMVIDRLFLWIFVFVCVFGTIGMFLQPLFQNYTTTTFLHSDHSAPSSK
UniProt P43681, 29-627 limits assumed: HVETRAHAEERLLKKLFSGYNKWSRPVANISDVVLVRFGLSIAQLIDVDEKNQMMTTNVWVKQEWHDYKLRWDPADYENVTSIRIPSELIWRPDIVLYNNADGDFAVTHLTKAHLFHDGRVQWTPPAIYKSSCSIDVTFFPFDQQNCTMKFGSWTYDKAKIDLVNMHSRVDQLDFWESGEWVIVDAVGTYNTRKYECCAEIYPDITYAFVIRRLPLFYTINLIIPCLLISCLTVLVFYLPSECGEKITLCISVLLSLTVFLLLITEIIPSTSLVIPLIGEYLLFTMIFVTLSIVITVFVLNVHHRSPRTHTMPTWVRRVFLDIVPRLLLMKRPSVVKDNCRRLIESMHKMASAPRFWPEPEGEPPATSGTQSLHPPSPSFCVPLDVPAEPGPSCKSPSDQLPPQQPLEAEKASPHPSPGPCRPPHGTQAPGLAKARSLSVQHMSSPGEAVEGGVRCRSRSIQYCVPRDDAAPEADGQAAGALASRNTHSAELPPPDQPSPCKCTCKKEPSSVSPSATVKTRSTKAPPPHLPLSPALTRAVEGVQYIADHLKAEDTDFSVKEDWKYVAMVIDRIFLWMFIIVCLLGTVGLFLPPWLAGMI
UniProt P02716, 25-520 limits assumed: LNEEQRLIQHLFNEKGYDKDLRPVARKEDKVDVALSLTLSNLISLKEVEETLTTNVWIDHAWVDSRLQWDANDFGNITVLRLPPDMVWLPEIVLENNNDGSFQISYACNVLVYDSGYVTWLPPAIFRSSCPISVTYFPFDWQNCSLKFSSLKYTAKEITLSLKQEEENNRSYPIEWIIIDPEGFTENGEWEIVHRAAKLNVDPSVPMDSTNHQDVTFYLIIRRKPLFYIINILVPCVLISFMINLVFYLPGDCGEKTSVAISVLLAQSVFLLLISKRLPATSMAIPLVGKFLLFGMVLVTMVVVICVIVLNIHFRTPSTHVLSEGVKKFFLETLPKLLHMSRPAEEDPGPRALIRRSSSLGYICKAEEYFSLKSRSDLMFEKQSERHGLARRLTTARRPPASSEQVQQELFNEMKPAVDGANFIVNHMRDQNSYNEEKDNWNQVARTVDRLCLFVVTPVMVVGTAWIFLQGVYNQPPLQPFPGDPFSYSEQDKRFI
UniProt P04756, 21-457 limits assumed: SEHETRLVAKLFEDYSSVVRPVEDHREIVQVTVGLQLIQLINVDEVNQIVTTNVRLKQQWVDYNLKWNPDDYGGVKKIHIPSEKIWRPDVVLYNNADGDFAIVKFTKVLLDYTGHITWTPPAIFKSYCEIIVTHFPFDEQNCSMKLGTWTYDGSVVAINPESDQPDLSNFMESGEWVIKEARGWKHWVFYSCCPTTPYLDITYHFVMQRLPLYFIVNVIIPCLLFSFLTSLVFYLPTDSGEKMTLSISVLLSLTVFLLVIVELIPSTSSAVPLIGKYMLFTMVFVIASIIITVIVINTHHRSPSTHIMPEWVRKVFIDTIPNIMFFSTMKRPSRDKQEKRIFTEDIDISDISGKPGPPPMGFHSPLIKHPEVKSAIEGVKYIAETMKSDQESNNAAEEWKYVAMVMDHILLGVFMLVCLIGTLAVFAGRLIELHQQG
UniProt P04760, 23-519 limits assumed: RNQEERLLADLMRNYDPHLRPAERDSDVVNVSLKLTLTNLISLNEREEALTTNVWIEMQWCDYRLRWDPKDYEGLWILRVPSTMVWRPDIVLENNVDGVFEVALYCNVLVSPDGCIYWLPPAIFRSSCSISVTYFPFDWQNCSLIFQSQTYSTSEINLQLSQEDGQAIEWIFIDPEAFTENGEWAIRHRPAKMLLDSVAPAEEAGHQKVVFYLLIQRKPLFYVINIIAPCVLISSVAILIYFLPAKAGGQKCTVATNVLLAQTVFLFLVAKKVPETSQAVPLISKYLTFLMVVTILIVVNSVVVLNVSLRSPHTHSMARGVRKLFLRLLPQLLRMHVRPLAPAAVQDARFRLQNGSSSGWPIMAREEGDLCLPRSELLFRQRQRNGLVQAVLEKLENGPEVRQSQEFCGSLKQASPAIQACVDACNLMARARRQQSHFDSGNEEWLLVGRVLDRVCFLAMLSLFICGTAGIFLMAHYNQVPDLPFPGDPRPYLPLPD
UniProt P09690, 24-501 limits assumed: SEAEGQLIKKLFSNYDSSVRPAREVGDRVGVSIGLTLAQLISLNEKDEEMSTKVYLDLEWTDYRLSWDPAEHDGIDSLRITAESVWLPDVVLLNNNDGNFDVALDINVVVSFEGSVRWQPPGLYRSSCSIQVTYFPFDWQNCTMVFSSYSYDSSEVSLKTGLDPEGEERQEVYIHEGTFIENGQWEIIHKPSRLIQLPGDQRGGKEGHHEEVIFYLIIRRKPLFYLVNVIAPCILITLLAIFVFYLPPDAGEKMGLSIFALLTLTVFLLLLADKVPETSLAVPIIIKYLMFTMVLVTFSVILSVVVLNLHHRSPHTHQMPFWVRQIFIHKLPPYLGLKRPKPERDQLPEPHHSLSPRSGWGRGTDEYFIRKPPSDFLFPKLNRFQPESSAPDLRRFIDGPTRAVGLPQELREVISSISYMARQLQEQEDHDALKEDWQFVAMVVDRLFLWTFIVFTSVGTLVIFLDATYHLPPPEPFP

Experiment [1] has as its target nAChR from Torpedo californica electroplax (acetylcholine binding site) (Tetronarce californica, UniProt P02710+P02712+P02714+P02718). In words: Binding competition with I125-α-bungarotoxin, Torpedo electroplax membranes. Particulars: Torpedo californica electroplax membrane fraction.
The target of experiment [2] is neuronal nicotinic acetylcholine receptor subtype (α4β2) (Homo sapiens, UniProt P17787+P43681). Description: Neuronal nAChR subtype expressed in the oocyte system.
Experiment [3] deals with nAChR from Torpedo californica electroplax (Tetronarce californica, UniProt P02710+P02712+P02714+P02718). Description: Displacement of I125-conotoxin peptide, Torpedo electroplax membranes. Particulars: read-out: apparent IC50, displacement of I125-conotoxin peptide; Torpedo californica electroplax membrane fraction; unlabeled peptide.
Experiment [4] has as its target nAChR cloned from mouse skeletal muscle (Mus musculus, UniProt P02716+P04756+P04760+P09690). Description: Acetylcholine-elicited current of nAChR expressed in Xenopus oocytes (mouse skeletal muscle mRNA).
Experiment [5] addresses nAChR from Torpedo electric organ (Tetronarce californica, UniProt P02710+P02712+P02714+P02718). Description: Acetylcholine-elicited current of nAChR expressed in Xenopus oocytes (Torpedo electric organ mRNA).

One may read the pIC50 as the negative decadic logarithm of the IC50, by convention in mol/L.

pIC50: −log10 of the molar value. Only a part of the results on these compounds is given; other tests are left out.

As for `CC(C)C[C@@H]1NC(=O)[C@@H]2CSSC[C@@H]3NC(=O)[C@H](CO)NC(=O)[C@H](C)NC(=O)[C@H](CO)NC(=O)[C@H](CO)NC(=O)[C@H](CSSC[C@H](NC(=O)[C@@H]4C[C@@H](O)CN4C(=O)[C@@H]4C[C@@H](O)CN4C(=O)[C@@H](N)Cc4c[nH]cn4)C(=O)N2)NC(=O)CNC(=O)[C@@H]2C[C@@H](O)CN2C(=O)[C@H](Cc2ccc(O)cc2)NC(=O)[C@H](CCCNC(=N)N)NC(=O)[C@H](CCCNC(=N)N)NC(=O)[C@H](CSSC[C@@H](C(=O)N[C@@H](CCC(N)=O)C(=O)N[C@@H](CCCNC(=N)N)C(N)=O)NC3=O)NC(=O)[C@H](CCCCN)NC(=O)CNC(=O)[C@H](Cc2ccc(O)cc2)NC1=O`, the “competition for I125-α-bungarotoxin binding” value in experiment [1] is reported as “does not compete for α-bungarotoxin binding”. Moreover, the “effect on neuronal nAChR subtype” value in experiment [2] is “no significant effect”. Moreover, the negative logarithm of the IC50 (pIC50) in experiment [3] was 7.60; in experiment [5] (read-out: IC50, inhibition of acetylcholine-elicited current, Torpedo receptor in Xenopus oocytes), 6.90. In addition, the “effect on current normally elicited by acetylcholine” value in experiment [4] and in experiment [5] (Torpedo electric organ nAChR in Xenopus oocytes) was “inhibited the current normally elicited by acetylcholine” each time.
